Compound potency records, mixed from different reports. Data source: NIAID ChemDB in PubChem.

Shared fields: growth or infection tests; species: Mycobacterium tuberculosis

MIC bound comes from a single tested concentration.

smiles	tested at	strain or isolate	cell line	read by	read-out	result
CCOC(=O)Nc1cc(OCC)c2nc(-c3ccccc3)c(-c3ccccc3)nc2n1	-	H37Rv	-	-	EC50	<12.5 µg/mL
O=C(O)C1CSC(c2ccc(O)cc2)N1	-	H37Rv	-	-	MIC	100 µg/mL
CCCCC(CC)CN1CN(CC(CC)CCCC)CC(C)(NCCNCc2cccc3ccccc23)C1	-	-	-	-	MIC	25 µM
O=C(N/N=C/c1ccccc1F)c1ccncc1	-	H37Rv (isoniazid-resistant)	-	-	MIC	>32 µg/mL
c1ccc(-c2ccccc2OCCOCCN2CCOCC2)cc1	-	H37Rv	-	-	MIC	>100 µg/mL
CCOC(=O)Nc1cc(NCC(O)CN(C)c2ccc(Cl)cc2)c([N+](=O)[O-])c(N)n1	-	H37Rv	-	-	EC50	>12.5 µg/mL
Cc1ccc(C)c(C(=O)Nc2ccc(-c3ccc(NC(=O)c4c(C)ccc(C)c4O)cc3)cc2)c1O	-	H37Rv	-	-	MIC	>100 µg/mL
CCCCCc1cc(OC)c2ccccc2n1	-	MT7	-	-	MIC	21 µg/mL
O=c1oc2ccc(F)cc2c(=O)n1-c1cccc(Cl)c1	-	CNCTC MY331/88	-	-	MIC	8 µM
NCCCNc1ccnc(N)n1	-	H37Rv	-	-	MIC	>100 µg/mL
COc1ccc2c(=O)n(-c3ccc(F)cc3)c(=O)oc2c1	-	CNCTC MY331/88	-	-	MIC	32 µM
Cc1ccccc1N1CCOS(=O)OC(C)C1	12.5 µg/mL	H37Rv	-	BACTEC	inhibition	-25%
CC(C)N1CCCC(COC(=O)c2ccc([N+](=O)[O-])cc2)C1.Cl	-	H37Rv	-	-	MIC	>100 µg/mL
CC1(O)Nc2nc3c(ncn3[C@@H]3O[C@H](CO)[C@@H](O)[C@H]3O)c(=O)n2C1O	6.25 µg/mL	H37Rv	-	resazurin	inhibition	25%
CC(NNC(=O)c1ccncc1)c1cccc(C(F)(F)F)c1	-	H37Rv (rifampin-resistant)	-	-	MIC	1.96 µg/mL
NCC[C@H](O)C(=O)N[C@@H]1C[C@H](N)[C@@H](O[C@H]2O[C@H](CN)[C@@H](O)[C@H](O)[C@H]2O)[C@H](O)[C@H]1O[C@H]1O[C@H](CO)[C@@H](O)[C@H](N)[C@H]1O	-	ATCC 35827 (kanamycin-resistant)	-	-	MIC	>128 µg/mL
COC1=CC(=O)N(C(=O)C2CSC(C(CO)NC(=O)c3csc(C=NO)n3)=N2)C1	-	H37Rv	-	BACTEC	MIC bound	>12.8 µg/mL
Oc1c(-c2nc3ccccc3o2)ccc2ccccc12	-	H37Rv	-	-	MIC	25 µg/mL
NC1CCN(c2nc3c(cc2F)c(=O)c(C(=O)O)cn3-c2ccc(F)cc2F)C1	-	ATCC 35820	-	-	MBC	>8 µg/mL
O=C1C2C3CCC(O3)C2C(=O)N1c1ccccn1	-	H37Rv	-	BACTEC	MIC bound	>12.5 µg/mL
CC1CN(c2cc3c(cc2F)c(=O)c(C(=O)O)cn3-c2ccc(F)cc2F)CCN1	-	ATCC35838	-	-	MIC	0.5 µg/mL
CC(C)(C)OC(=O)NC(CCC(=O)OCc1ccccc1)C(=O)N[C@@H]1C(CO)O[C@@H](n2cnc3c(N)ncnc32)[C@H]1O	12.5 µg/mL	H37Rv	-	BACTEC	inhibition	19%
NC(=O)c1cnccn1	-	Isolate 10003 monodrug-resistant	-	-	MIC	>300 µg/mL
CCN(CC)c1ccc(-c2ccc3cccc(C)c3n2)cc1	-	H37Rv	-	-	MIC	>100 µg/mL
CC(CNCCC(c1ccccc1)c1ccccc1)NC[C@@H]1CC[C@H]2C[C@@H]1C2(C)C	-	-	-	-	MIC	12.5 µM
CO[C@H]1/C=C/O[C@@]2(C)Oc3c(C)c(O)c4c(=O)c(c5oc6cc(N7CCN(CC(C)C)CC7)cc(=O)c6nc5c4c3=C2O)NC(=O)/C(C)=C\C=C\[C@H](C)[C@H](O)[C@@H](C)[C@@H](O)[C@@H](C)[C@H](OC(C)=O)[C@@H]1C	-	27 (rifampin-resistant)	-	-	MBC	0.1 µg/mL
CC(C)c1ccc2c(c1)CC[C@H]1[C@](C)(CNCCNCCc3ccc(F)cc3)CCC[C@]21C	-	-	-	-	MIC	25 µM
O=C(NNCc1cccc(C(F)(F)F)c1)c1ccncc1	-	Thiacetazone-resistant	-	-	MIC	>6.25 µg/mL
NC(=S)/C(N)=N/Nc1ccc(Cl)cc1	-	H37Rv	-	BACTEC	MIC bound	>12.5 µg/mL
c1ccc(C(CNCCN2CCCC3CCCCC32)c2ccccc2)cc1	-	-	-	-	MIC	25 µM
O=c1oc2ccc(Br)cc2c(=O)n1-c1cccc(Cl)c1	-	CNCTC MY331/88	-	-	MIC	8 µM
COc1ccc(CCc2cc(OC)c3ccccc3n2)cc1OC	-	MT4	-	-	MIC	25 µg/mL
CN(C)C1CCc2c(ccc3ccccc23)C1O.Cl	-	H37Rv	-	-	MIC	50 µg/mL
COc1ccc2[nH]cc(CCNCCNCC(C)c3ccccc3)c2c1	-	-	-	-	MIC	50 µM
CO[C@H]1/C=C/O[C@@]2(C)Oc3c(C)c(O)c4c(=O)c(c5oc6cc(N7CCN(CC(C)C)CC7)cc(=O)c6nc5c4c3=C2O)NC(=O)/C(C)=C\C=C\[C@H](C)[C@H](O)[C@@H](C)[C@@H](O)[C@@H](C)[C@H](OC(C)=O)[C@@H]1C	-	TN565	-	-	MIC	32 µg/mL
c1ccc(CCCc2ccncc2)cc1	-	H37Rv	-	-	MIC	>100 µg/mL
CCOC(=O)Nc1ccc(N)c(N)n1	-	H37Rv	-	-	EC50	>12.5 µg/mL
O=C(O)CCCCC1CCSS1	12.5 µg/mL	H37Rv	-	BACTEC	inhibition	0%
CCCCCNCCNCC12CC3CC(CC(C3)C1)C2	-	-	-	-	MIC	50 µM
O=S(=O)(CCO)CCO	-	H37Rv	-	-	MIC	>100 µg/mL
CC1=CC(=Nc2ccc(N(C)C)cc2)C=C(C)C1=O	6.25 µg/mL	H37Rv	-	resazurin	inhibition	101%
C/C(=N\NC(=O)c1ccncc1)c1ccccc1	-	Thiacetazone-resistant	-	-	MIC	>3.2 µg/mL
FC(F)(F)c1ccc(CNCCNCC23CC4CC(CC(C4)C2)C3)cc1	-	-	-	-	MIC	25 µM
CO[C@H]1/C=C/O[C@@]2(C)Oc3c(C)c(O)c4c(O)c(c(/C=N/N5CCN(C6CCCC6)CC5)c(O)c4c3C2=O)NC(=O)/C(C)=C\C=C\[C@H](C)[C@H](O)[C@@H](C)[C@@H](O)[C@@H](C)[C@H](O)[C@@H]1C	-	Isolate 910328 rifampicin-resistant	-	-	MIC	>64 µg/mL
Cc1ccc(S(=O)(=O)C(CC(=O)c2ccc(Cl)cc2)c2ccc(N(C)C)cc2)cc1	-	H37Rv	-	-	MIC	>100 µg/mL
CO[C@@]12[C@H](COC(N)=O)C3=C(C(=O)C(C)=C(N)C3=O)N1C[C@H]1[C@@H]2N1C	-	H37Rv	VERO	-	MIC	0.8 µg/mL
CCCCC(CC)CN1CN(CC(CC)CCCC)CC(C)(NCCNCc2ccc(C)cc2)C1	-	-	-	-	MIC	25 µM
C[C@H]1COc2c(N3CCN(C)CC3)c(F)cc3c(=O)c(C(=O)O)cn1c23	-	Drug-resistant	-	-	MIC90	0.25 µg/mL
CC(C)(C)CC(C)(C)NCCNCC12CC3CC(CC(C3)C1)C2	-	-	-	-	MIC	4.7 µM
O=C1OC(c2ccccc2)=NC1=Cc1ccccc1F	12.5 µg/mL	H37Rv	-	BACTEC	inhibition	94%
Clc1cnc2ccccc2c1	-	H37Rv	-	-	MIC	100 µg/mL
CCCCCC(C)NCCNC1(C)CN(CC(CC)CCCC)CN(CC(CC)CCCC)C1	-	-	-	-	MIC	25 µM
O=C([O-])c1cc(N=Nc2ccc(-c3ccc(N=Nc4ccc5ccccc5c4O)cc3)cc2)ccc1O.[Na+]	-	H37Rv	-	-	MIC	>100 µg/mL
CCOC(=O)Nc1cc2c(c(NC(=O)CBr)n1)N=C(c1ccccc1)CO2	-	H37Rv	-	-	EC50	>12.5 µg/mL
CCCCC(CC)CN1CN(CC(CC)CCCC)CC(C)(NCCNC2CCCC2)C1	-	-	-	-	MIC	25 µM
CC(C)Oc1ccc(C(=O)NS(=O)(=O)c2ccc(N=Nc3c(O)n(-c4ccccc4)n(-c4ccccc4)c3=O)cc2)cc1	-	H37Rv	-	BACTEC	MIC bound	>12.8 µg/mL
CC(C)c1ccc2c(c1)CC[C@H]1[C@](C)(CNCCNCCc3ccc(O)c(O)c3)CCC[C@]21C	-	-	-	-	MIC	50 µM
c1ccc(-n2cccc2)cc1	-	H37Rv	-	-	MIC	>100 µg/mL
CC1COc2c(N3CCN(C)CC3)c(F)cc3c(=O)c(C(=O)O)cn1c23	-	Drug-resistant	-	-	MBC90	2 µg/mL
C=CCNC(=S)/N=C/C(C(=O)Nc1ccc(Cl)cc1)=C(\C)O	-	H37Rv	-	resazurin	MIC bound	>6.25 µg/mL
CO[C@H]1/C=C/O[C@@]2(C)Oc3c(C)c(O)c4c(O)c(c5c(c4c3C2=O)NC2(CCN(CC(C)C)CC2)N=5)=NC(=O)/C(C)=C\C=C\[C@H](C)[C@H](O)[C@@H](C)[C@@H](O)[C@@H](C)[C@H](OC(C)=O)[C@@H]1C	-	Strain 86-99 (S531L)	-	-	MIC	6 µg/mL
COc1ccc(-n2c(=O)oc3ccc(Cl)cc3c2=O)cc1	-	CNCTC MY331/88	-	-	MIC	62 µM
C[C@H]1C[C@H](N)CN1c1cc2c(cc1F)c(=O)c(C(=O)O)cn2-c1ccc(F)cc1F	-	ATCC 35830	-	-	MBC	8 µg/mL
CC(O)COc1ccccc1	-	H37Rv	-	-	MIC	>100 µg/mL
CC(C)(CO)NCCNCCc1ccccc1F	-	-	-	-	MIC	25 µM
CC(NNC(=O)c1ccncc1)c1ccc(Cl)c(Cl)c1	-	H37Rv (ethionamide-resistant)	-	-	MIC	>31.25 µg/mL
c1ccc(C(CCNCCN[C@H]2C[C@@H]3CC[C@H]2C3)c2ccccc2)cc1	-	-	-	-	MIC	3.13 µM
Oc1cccc(O)c1O	-	H37Rv	-	-	MIC	>100 µg/mL
O=[N+]([O-])c1ccc(-c2cnc3nc4[nH]c5ccccc5c4nn23)cc1	12.5 µg/mL	H37Rv	-	BACTEC	inhibition	90%
NC(=O)CNc1cccc(NCC(N)=O)c1	-	H37Rv	-	-	MIC	50 µg/mL
CCN(CC)CCN(C)Cc1coc(-c2ccccc2)c1Cl.Cl.Cl	-	H37Rv	-	BACTEC	MIC bound	≤12.5 µg/mL
CCOC(=O)Nc1cc(NC(C)/C(=N/O)c2ccccc2)c([N+](=O)[O-])c(N)n1	-	H37Rv	-	-	EC50	>12.5 µg/mL
NCC[C@H](O)C(=O)N[C@@H]1C[C@H](N)[C@@H](O[C@H]2O[C@H](CN)[C@@H](O)[C@H](O)[C@H]2O)[C@H](O)[C@H]1O[C@H]1O[C@H](CO)[C@@H](O)[C@H](N)[C@H]1O	-	MDR5	-	broth dilution / resazurin	MIC	1 µg/mL
CC(C)CCCC(=O)CCCCCCC(=O)CCN(O)C(=O)C(N)CO	-	H37Rv	-	BACTEC	MIC bound	>12.5 µg/mL
CCc1c(Oc2cc(Nc3ccc(C)cc3S(=O)(=O)[O-])c3c4c(cc(=O)n(C)c24)-c2ccccc2C3=O)cccc1S(=O)(=O)[O-].[Na+].[Na+]	-	H37Rv	-	-	MIC	>100 µg/mL
CC1NOC(NS(=O)(=O)c2ccc(N=Nc3c(O)c(C(=O)O)cc4ccccc34)cc2)C1C	-	H37Rv	-	BACTEC	MIC bound	>12.5 µg/mL
CC(CNCCNCCc1ccc(Cl)cc1Cl)c1ccccc1	-	-	-	-	MIC	25 µM
CC(Cc1c[nH]c2ccccc12)NCCNC1CCCC(C)C1C	-	-	-	-	MIC	50 µM
Oc1ccc(NC(=S)S)cc1	-	H37Rv	-	BACTEC	MIC bound	>12.5 µg/mL
Fc1ccc(CNCCNCc2ccco2)cc1	-	-	-	-	MIC	50 µM
CCc1c(C)[nH]c(-c2csc(N)n2)c1C.Cl	12.5 µg/mL	H37Rv	-	BACTEC	inhibition	41%
Cc1ccc(-c2ccccn2)cc1N	-	H37Rv	-	-	MIC	>100 µg/mL
Nc1nnc2nc(C3(c4nc5nnc(N)n5[nH]c4=O)Cc4ccccc4C3=O)c(=O)[nH]n12	12.5 µg/mL	H37Rv	-	BACTEC	inhibition	0%
CC(=O)c1ccc2oc3cc4nc(C)[nH]c4cc3c2c1	-	H37Rv	-	-	MIC	50 µg/mL
COc1cc2oc(=O)ccc2cc1C1OC(=O)C2OC21C	-	H37Rv	-	BACTEC	MIC bound	>12.5 µg/mL
O=C(NNCc1ccccc1F)c1ccncc1	-	Ciprofloxacin-resistant	-	-	MIC	0.78 µg/mL

A second listing of 5 rows from above:

smiles,tested at,strain or isolate,cell line,read by,read-out,result
CCOC(=O)Nc1cc(OCC)c2nc(-c3ccccc3)c(-c3ccccc3)nc2n1,-,H37Rv,-,-,EC50,<12.5 µg/mL
CCCCC(CC)CN1CN(CC(CC)CCCC)CC(C)(NCCNCc2ccc(C)cc2)C1,-,-,-,-,MIC,25 µM
C/C(=N\NC(=O)c1ccncc1)c1ccccc1,-,Thiacetazone-resistant,-,-,MIC,>3.2 µg/mL
NC(=O)c1cnccn1,-,Isolate 10003 monodrug-resistant,-,-,MIC,>300 µg/mL
CC1CN(c2cc3c(cc2F)c(=O)c(C(=O)O)cn3-c2ccc(F)cc2F)CCN1,-,ATCC35838,-,-,MIC,0.5 µg/mL

ECn: concentration that inhibits the pathogen or its effect by n%. An empty or dashed field is not shown. Conditions beyond the fields shown may differ between rows. MIC50, MIC90 and the like: level of inhibition, or share of isolates inhibited. Percent inhibition refers to the dose given; in toxicity tests it is the harm to the cells.